Measured values from several laboratories, pooled; numbers as filed in NIAID ChemDB.

Shared fields: tests in culture; species: Cryptococcus neoformans; endpoint: MIC

Blank or dashed fields: not listed here.

structure | strain or isolate | method | value
CO[C@H]1C[C@H](O[C@H]2[C@@H](OC)C[C@H](O[C@H]3[C@@H](OC)C[C@H](O[C@H]4CC[C@@]5(C)C(=CC[C@H]6C7=CC(=O)[C@@H]8[C@@H](C)OC(=O)[C@]78CC[C@@H]65)C4)O[C@@H]3C)O[C@@H]2C)O[C@H](C)[C@H]1O | IP 90526 | broth dilution / turbidity | 100 µg/mL
O=C(O)C(Cc1c[nH]c2ccccc12)[NH][Sn]([c]1ccccc1)([c]1ccccc1)[c]1ccccc1 |  |  | <12.5 µg/mL
COc1ccc(C(=O)/C=C/c2cc3ccccc3nc2Cl)c(OC)c1 | ATCC 32264 |  | >50 µg/mL
C[C@H]1[C@H](O)[C@@H](C)/C=C/C=C/C=C/C=C/C=C/C=C/C=C/[C@H](O[C@@H]2O[C@H](C)[C@@H](O)[C@H](N)[C@@H]2O)C[C@@H]2O[C@](O)(C[C@@H](O)C[C@@H](O)CC[C@H](O)[C@@H](O)C[C@@H](O)CC(=O)O[C@H]1C)C[C@H](O)[C@H]2C(=O)O |  |  | 1.2 µM
CO[C@H]1C[C@H](O[C@H]2CC[C@@]3(C)C(=CC[C@@H]4[C@@H]3CC[C@]35C(=O)O[C@H](C)[C@H]3C(=O)C[C@]45O)C2)O[C@H](C)[C@H]1O[C@H]1C[C@H](OC)[C@H](O[C@@H]2C[C@@H](OC)[C@@H](O[C@@H]3O[C@H](CO)[C@@H](O)[C@H](O)[C@H]3O)[C@H](C)O2)[C@@H](C)O1 | IP 90526 | broth dilution / turbidity | 25 µg/mL
N#[N+]c1nc(-c2ccc(F)cc2)[nH]c1C(=O)N1CCCC1 | L29 |  | 10 µg/mL
C[C@@H]1CC[C@@]2(OC1)O[C@H]1C[C@H]3[C@@H]4CC=C5C[C@@H](O)[C@H](O)[C@@H](O[C@@H]6OC[C@@H](O)[C@H](O)[C@H]6O)[C@]5(C)[C@H]4CC[C@]3(C)[C@@]1(O)[C@@H]2C |  |  | ≥20 µg/mL
N#CC(C#N)C(CC(=O)c1ccccc1)c1cc2ccccc2nc1Cl | ATCC 32264 |  | >50 µg/mL
C[C@@H]1[C@H](O)[C@@H](C)/C=C/C=C/C=C/C=C/C=C/C=C/C=C/[C@H](O[C@@H]2O[C@H](C)[C@@H](O)[C@H](N)[C@@H]2O)C[C@@H]2O[C@](O)(C[C@@H](O)C[C@@H](O)[C@H](O)CC[C@@H](O)C[C@@H](O)CC(=O)O[C@H]1C)C[C@H](O)[C@H]2C(=O)O | ATCC 32608 | broth dilution | 0.04 µg/mL
Clc1ccc(-c2c(C(c3ccccc3)n3ccnc3)cnn2-c2ccc(Cl)cc2)cc1 |  |  | 11.1 µM
CC[C@@]1(O)C(=O)OCc2c1cc1n(c2=O)Cc2c-1nc1cc3c(cc1c2C)OCO3 | H99 |  | >100 µg/mL
CCOP(=O)(OCC)C(F)(F)[C@@H]1[C@@H](O)[C@H](O)[C@H](CO)N1CCNC1[C@@H](CO)O[C@H](OC)[C@H](NC(C)=O)[C@H]1O |  |  | >128 µg/mL
N=C(N)c1ccc2c(c1)[nH]c1cc(C(=N)N)ccc12 | H99 |  | 6.25 µg/mL
COc1ccc(OC)c(C(=O)/C=C/c2cc3cc(OC)c(OC)cc3nc2Cl)c1 | ATCC 32264 |  | >50 µg/mL
CC[C@H]1OC(=O)C=C2[C@@]13O[C@@H]3C1OC(=O)[C@@]3(C)CCC[C@@]2(C)[C@@H]13 | ATCC90112 |  | 8 µg/mL
COc1ccc(C(=O)/C=C/c2ccc(N(C)C)cc2)cc1OC | ATCC 32264 |  | >50 µg/mL
C=CCc1ccc(O)c(-c2ccc(O)c(CC=C)c2)c1 | KCTC 7224 |  | 50 µg/mL
Cc1nc([N+]#N)c(C(=O)N2CCCC2)[nH]1 | L29 |  | 50 µg/mL
CN(C/C=C/C#CC(C)(C)C)Cc1cccc2ccccc12 | 3 strains |  | 2.18 µg/mL
C=C1CO[C@@]2(O[C@H]3C[C@H]4[C@@H]5CC=C6C[C@@H](O)[C@H](O)[C@@H](O[C@@H]7O[C@H](CO)[C@H](O)[C@H](O)[C@H]7O)[C@]6(C)[C@H]5CC[C@]4(C)[C@H]3[C@@H]2C)[C@@H](O)C1 |  |  | ≥20 µg/mL
CO[C@H]1C[C@H](O[C@H]2CC[C@@]3(C)C(=CC[C@@H]4[C@@H]3CC[C@]35C(=O)O[C@H](C)[C@H]3C(=O)C[C@]45O)C2)O[C@H](C)[C@H]1O | IP 90526 | broth dilution / turbidity | 25 µg/mL
CC[C@@]1(O)C(=O)OCc2c1cc1n(c2=O)Cc2cc3c(N)c4c(cc3nc2-1)OCO4 | H99 |  | >100 µg/mL
C[C@H](NC(=O)[C@H](Cc1ccccc1)NC(=O)[C@@H](N)CCCCN)C(=O)N[C@@H](CCCCN)C(=O)O | 32045 |  | >500 µg/mL
C=C(CCC1(O)O[C@H]2C[C@H]3[C@@H]4CC=C5C[C@@H](O)[C@H](O)[C@@H](O[C@@H]6O[C@H](CO)[C@H](O)[C@H](O)[C@H]6O)[C@]5(C)[C@H]4CC[C@]3(C)[C@H]2[C@@H]1C)CO[C@@H]1O[C@H](CO)[C@@H](O)[C@H](O)[C@H]1O |  |  | 5 µg/mL
CO[C@H]1OC(=O)C[C@@]2(O)[C@@]13O[C@@H]3C1OC(=O)[C@@]3(C)CCC[C@@]2(C)[C@@H]13 | ATCC90112 |  | >64 µg/mL
CC(C)c1nc([N+]#N)c(C(=O)N2CCCC2)[nH]1 | L29 |  | 100 µg/mL
COc1ccc(C(=O)CC(c2cc3ccccc3nc2Cl)C(C#N)C#N)cc1OC | ATCC 32264 |  | >50 µg/mL
c1ccc(-c2c(C(c3ccccc3)n3ccnc3)cnn2-c2ccccc2)cc1 |  |  | 22 µM
C=C1CC[C@@]2(OC1)O[C@H]1C[C@H]3[C@@H]4CC=C5C[C@@H](O)[C@H](O)[C@@H](O[C@@H]6O[C@H](CO)[C@H](O)[C@H](O)[C@H]6O)[C@]5(C)[C@H]4CC[C@]3(C)[C@H]1[C@@H]2C |  |  | ≥20 µg/mL
CCc1nc([N+]#N)c(C(=O)N2CCCC2)[nH]1 | L29 |  | 50 µg/mL
CO[C@H]1C[C@H](O[C@H]2CC[C@@]3(C)C(=CC[C@H]4C5=CC(=O)[C@@H]6[C@@H](C)OC(=O)[C@]56CC[C@@H]43)C2)O[C@H](C)[C@H]1O[C@H]1C[C@H](OC)[C@H](O[C@@H]2C[C@@H](OC)[C@@H](O[C@@H]3O[C@H](CO[C@@H]4O[C@H](CO)[C@@H](O)[C@H](O)[C@H]4O)[C@@H](O)[C@H](O)[C@H]3O)[C@H](C)O2)[C@@H](C)O1 | IP 90526 | broth dilution / turbidity | 25 µg/mL
CCC[CH2][Sn](=[O])[CH2]CCC |  |  | 50 µg/mL
COc1ccc(/C=C/C(=O)c2ccccc2)cc1 | ATCC 32264 |  | >50 µg/mL
[Cl][Sn]([c]1ccccc1)([c]1ccccc1)[c]1ccccc1 |  |  | 1.56 µg/mL
N#[N+]c1nc(-c2ccccc2)[nH]c1C(=O)N1CCCC1 | L29 |  | 50 µg/mL

4 of the rows above, restated:

CC[C@@]1(O)C(=O)OCc2c1cc1n(c2=O)Cc2c-1nc1cc3c(cc1c2C)OCO3 ; strain or isolate: H99 ; value: >100 µg/mL
COc1ccc(C(=O)/C=C/c2ccc(N(C)C)cc2)cc1OC ; strain or isolate: ATCC 32264 ; value: >50 µg/mL
CO[C@H]1C[C@H](O[C@H]2CC[C@@]3(C)C(=CC[C@@H]4[C@@H]3CC[C@]35C(=O)O[C@H](C)[C@H]3C(=O)C[C@]45O)C2)O[C@H](C)[C@H]1O ; strain or isolate: IP 90526 ; method: broth dilution / turbidity ; value: 25 µg/mL
N=C(N)c1ccc2c(c1)[nH]c1cc(C(=N)N)ccc12 ; strain or isolate: H99 ; value: 6.25 µg/mL

Conditions beyond the fields shown may differ between rows.